# Primary screen of a compound library

Measurements from “University of Dundee, Small-Polar-MMV Screening Library” (2021), ChEMBL document CHEMBL3988442.

A: 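Whole-cell growth test on Mycobacterium tuberculosis, read after 3 days in glucose-containing 7H9 medium; the read-out is not stated. Tested at 50 µM. Direction is inferred from retests: higher values go with more growth inhibition. Of about 69,000 compounds tested this way, about 760 (1.1%) reached 50% or more in at least one test.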
B: 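Growth of Mycobacterium tuberculosis over 4 days (cholesterol / DPPC medium with tyloxapol); the read-out is not stated. Tested at 50 µM. Direction is inferred from retests: higher values go with more growth inhibition. Size under these conditions: about 69,000 compounds, about 370 of them at 50% or above in at least one test.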

Results are given as percent effect. The record does not define 0% and 100%; most values in the screen are far below 50% and negative numbers occur (in some assays of this library far below -100). Many other results are left out here, so strong results are more common than in the screen. Two or more numbers in one place are separate tests of the same structure; such repeats can differ widely. A dash means the value is not listed here; it may have been measured.

| SMILES | A | B |
|---|---|---|
| `NS(=O)(=O)c1cccnc1Nc1c(Cl)cccc1Cl` | - | -45.77 |
| `NCCc1n[nH]c(=O)n1-c1cccc2ccccc12` | -40.67 | - |
| `Cc1cc(NCCCNc2cccnc2)n2nc(C)c(C)c2n1` | -7.875 | 7.988 |
| `Cn1ncnc1NCc1ccccc1Cl` | 14.21 | - |
| `[H][C@]12CCN(C(=O)c3cc(C)oc3C)C[C@@]1([H])OCCN(c1ncccn1)C2` | -19.39 | - |
| `COc1cccc(S(=O)(=O)CCN2CCCC2c2ccc[nH]2)c1` (stereo unspecified) | - | 15.76 |
| `COCCC(C)NC(=O)Nc1ccc(N2CCOC2=O)c(OC)c1` (stereo unspecified) | 102.8 | - |
| `CC(C)N1CCC(CC(=O)NC[C@H]2CCc3ccccc3O2)CC1` | -18.07 and 6.247 | 0.7685 |
| `CC(C)N(CCNc1nc(C2CCCC2)nc2c1cnn2C)C(C)C` | 79.72 | 71.17 and 44.75 |
| `CCc1c(C(=O)NC2CCS(=O)(=O)C2)cnn1-c1ccc(C)cc1` (stereo unspecified) | 10.28 | -11.72 |
| `O=C(c1ccc(Br)o1)N1CCN(Cc2ccc(OC(F)(F)F)cc2)CC1` | 28.43 and 38.24 | 70.77 |
| `O=C(O)C(F)(F)F.[H][C@@]12CCN(Cc3ccc(F)cc3)C[C@]1([H])[C@@H](CNS(C)(=O)=O)OC2` | - | -15.04 |
| `Cc1cc(C(=O)NCCc2nc3c(s2)CCCC3)n(C)n1` | 19.63 | - |
| `CCS(=O)(=O)N1CCC(NC(=O)c2cc(C(C)C)ccc2O)CC1` | 34.44 | - |
| `COCCOCC(=O)Nc1ccc(C)cc1F` | - | 3.862 |
| `OC(COCc1ccccc1)CSc1nnc2ccccn12` (stereo unspecified) | -1.335 | -4.419 |
| `Cc1nc(N2CCOCC2)nc2c1CCN(Cc1ccsc1)CC2.O=C(O)C(F)(F)F` | 31.79 and 29.38 | 14.66 and 16.01 |
| `CCc1ccc2nc(NCCOCCO)cc(C)c2c1` | 2.09 | - |
| `Cn1nc(CN2CCCCC(N)C2)c2c(Cl)cccc21` (stereo unspecified) | 29.26 | - |
| `Cc1nn(C)c(C)c1CCC(=O)N(C)Cc1ccc(C#N)cc1` | 26.05 | 20.38 |
| `CC(=O)N1CCC(CSCc2ccco2)CC1` | 1.972 | - |
| `COc1cc(Oc2ncccc2C(F)(F)F)ccc1CN1CCCC1` | 54.89 and 36.96 | - |
| `CCCn1nnnc1CN(c1ccc(C)cc1)C(C)C` | -18.17 | - |
| `COCCNc1nnc(-c2ccccn2)s1` | 12.63 | -8.82 |
| `O=C(O)C(F)(F)F.O=C1N(Cc2cccnc2)CCC12CCCN(c1ncc(F)cn1)C2` (stereo unspecified) | - | -8.327 |
| `CC(=O)NCCNC(=O)c1ccc(C)c(-n2cccc2)c1` | -13.93 | - |
| `Cc1nc(CN2CCCC(N(C)CCc3cccs3)C2)no1` (stereo unspecified) | - | -23.83 |
| `O=C(Nc1nccs1)c1csc(NC2CCCC2)n1` | 71.6 and 67.57 | 54.87 |
| `Clc1cccnc1N1CCC(C2CCN(Cc3cccnc3)CC2)C1` (stereo unspecified) | 8.898 | - |
| `CC(C)CN1Cc2c(C(=O)N(C)C)ncn2-c2ccccc2S1(=O)=O` | - | -4.362 |
| `CC(C)c1cc(C(=O)N2CCCN(Cc3ccccc3)CC2)n[nH]1` | 36.59 and 4.328 | - |
| `Cc1cccc(N2CCN(C(=O)C3CC4(CCNCC4)CN3)CC2)n1` (stereo unspecified) | -41.87 | - |
| `O=C(CCCc1nc(-c2ccccc2)no1)N1CCN(CCO)CC1` | -20.06 | -8.021 |
| `CC(C)n1cc(C(=O)NCC(CO)Cc2cccs2)cn1` (stereo unspecified) | 7.832 and -0.2664 | 4.694 |
| `Cc1csc(N2CCN(C(=O)Cc3cccs3)CC2)n1` | -12.96 | - |
| `Cc1ccc(-c2nc(C(=O)N3CCOCC3)cs2)c(C)c1` | -14.33 | - |
| `N#Cc1nccnc1N1CCC(CSc2ccccc2)C1` (stereo unspecified) | - | 58.43 |
| `CCCn1c(N2CCCCC2)nc2c(C)nn(C)c2c1=O` | -37.89 | - |
| `CC(=O)Nc1cccc(-c2ccccc2CCN)c1` | 60.09 | - |
| `NC(=O)CSCC(=O)N1CCc2cc(Cl)cc(Cl)c2C1` | 45.49 | - |
| `O=C(NC1CC2(CCN(CCO)CC2)Oc2ccccc21)c1csnn1` (stereo unspecified) | -0.7027 | - |
| `COc1cccc(S(=O)(=O)CCN2CCN(CCO)CC2)c1` | 22.19 | 20.71 |
| `CC(=O)NC1CC(C)(C)Cc2c1cnn2-c1cccc(F)c1` (stereo unspecified) | 7.831 and 30 | - |
| `CC(Oc1cc(Cl)cc(Cl)c1)C(=O)NCCOCC(N)=O` (stereo unspecified) | -20.09 | - |
| `CC(C)Nc1ncccc1C(=O)NCc1ncc[nH]1` | - | -1.253 |
| `Cc1nnc2n1CCN(C(C(=O)NC1CC1)c1ccccc1)C2` (stereo unspecified) | - | 17.68 |
| `CCN(C(=O)CN1CCCC1Cc1ccccc1)c1ccccc1` (stereo unspecified) | 38.73 and 35.51 | - |
| `NCC(c1ccc(Cl)cc1)N1CCc2sccc2C1` (stereo unspecified) | 40.58 | 47.68 |
| `CNC(=O)NC(=O)CCSc1ccccc1C` | -4.019 | - |
| `COc1ccc(NC(=O)c2cccc(OC)c2OC)cc1` | 22.63 | - |
| `O=C(NCCOc1ccc(Cl)cn1)Nc1ccccn1` | 19.32 | -6.02 and -7.532 |
| `O=C1C(Nc2ncccn2)CCN1c1ccccc1OC(F)F` (stereo unspecified) | 13.3 and 16.24 | 26 |
| `c1ccc(-c2nc3c(c(NCCn4ccnn4)n2)CCNCC3)nc1` | -11.75 | - |
| `CCCS(=O)(=O)N(C)C(=O)CCc1ccccc1` | 28.98 | 7.921 and 9.202 |
| `Cn1cc(CN2CCC(F)(F)C3(CCN(c4ccccn4)C3)C2)cn1.O=C(O)C(F)(F)F.O=C(O)C(F)(F)F` (stereo unspecified) | - | 15.48 |
| `Cn1c2c(c(=O)n1C)CN(C(=O)c1ccco1)CCC2` | - | 62.51 and -26.21 |
| `Cc1nc2cc(=O)[nH]n2c(C)c1CC(=O)NCCCc1ccccc1` | -13.82 | - |
| `O=C(COC1CCCC1)NCCc1nc(-c2ccccn2)cs1` | 14.91 | - |
| `O=C(NCN1CCc2ccccc2C1)c1cnccn1` | -4.565 | - |
| `Cc1cc2c(N)nc(=O)n(CC(=O)Nc3cccc(Cl)c3)c2s1` | 51.59 | - |
| `CNC(=O)C1CN(C(=O)c2cccs2)CCN(S(C)(=O)=O)C1` (stereo unspecified) | - | 1.229 and 115.2 |
| `Cc1nccn1CCCn1cncc1-c1ccc2c(c1)CCCN2C.Cl` | -19.77 | 19.26 and -0.06633 |
| `CSCCC1c2nc[nH]c2CCN1Cc1ccccc1C(F)(F)F` (stereo unspecified) | 18.5 | - |
| `CCCc1nnsc1C(=O)NCC1CCN(c2ncccn2)CC1` | 3.351 | - |
| `CN1N=C(C(=O)N2CCCC(CCc3c(F)cccc3F)C2)CCC1=O` (stereo unspecified) | 17.83 | 12.86 |
| `CCc1cc(N(C)Cc2ccnc(C)c2)n2nc(C)c(C)c2n1` | -8.359 | -2.654 |
| `COc1c(C)cnc(CSc2nnc(N)s2)c1C` | - | 11.73 and 50.34 |
| `O=C(O)[C@@H]1CN(CCOCCO)C[C@H]1c1ccccc1` | 4.737 and -23.59 | - |
| `Cc1cc(C)nc(N2CCC(CNC(=O)c3ccccn3)CC2)n1` | 14.01 | - |
| `CC(C)N1CCCC2(CCN(Cc3noc(C4CCCC4)n3)C2)C1=O` (stereo unspecified) | - | -24.68 and 6.678 |
| `Cc1cc(N(C)Cc2cc(C)on2)n2nc(C)c(C)c2n1` | 76.73 and 72 | 66.13 |
| `Nc1cc(N2CCCC(COc3ccc(F)cc3)C2)ncn1` (stereo unspecified) | 26.24 | 11.34 |
| `Cc1cc(C)c(C#N)c(N2CCC(Cc3ccccc3)CC2)n1` | 67.56 | 15.32 |
| `CCc1cnc(N2CCC3(CCN(Cc4cccc(C)c4)C3=O)C2)nc1` (stereo unspecified) | 10.97 | - |
| `O=S(=O)(CCSc1nccn1C1CC1)c1ccccc1` | -14.93 | 7.921 |
| `[H][C@@]12CC(C)=CC[C@]1([H])CN(C(=O)c1ccnc(CCC)c1)C2` | 53.7 | - |
| `Cc1ccc(N2CCC(c3[nH]ncc3Cc3ccccc3)CC2)nn1` | 23.96 | - |
| `CCC1=NC(SCC(=O)c2ccccc2)c2cc(CC)sc2N1` (stereo unspecified) | 58.68 | - |

The first 7 entries again:

Result for NS(=O)(=O)c1cccnc1Nc1c(Cl)cccc1Cl was B: -45.77%.
Result for NCCc1n[nH]c(=O)n1-c1cccc2ccccc12 was A: -40.67%.
Result for Cc1cc(NCCCNc2cccnc2)n2nc(C)c(C)c2n1 was A: -7.875%; B: 7.988%.
Result for Cn1ncnc1NCc1ccccc1Cl was A: 14.21%.
Result for [H][C@]12CCN(C(=O)c3cc(C)oc3C)C[C@@]1([H])OCCN(c1ncccn1)C2 was A: -19.39%.
Result for COc1cccc(S(=O)(=O)CCN2CCCC2c2ccc[nH]2)c1 (stereo unspecified) was B: 15.76%.
Result for COCCC(C)NC(=O)Nc1ccc(N2CCOC2=O)c(OC)c1 (stereo unspecified) was A: 102.8%.